Reference: patent publication US20050282254

Columns and labels:
[1] = molecular target: T1, Trx fused with 6/5 recognition site (construct 12)
T1 chain: LGRAGAYIFSSHHHHHHHH

[2] = molecular target: T2, Trx fused with 10/5 recognition site (construct 8)
T2 chain: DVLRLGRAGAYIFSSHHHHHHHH

B1: Pro39 (C-terminal cysteine protease domain of Semliki Forest virus non-structural protein nsP2) (protein)
chain: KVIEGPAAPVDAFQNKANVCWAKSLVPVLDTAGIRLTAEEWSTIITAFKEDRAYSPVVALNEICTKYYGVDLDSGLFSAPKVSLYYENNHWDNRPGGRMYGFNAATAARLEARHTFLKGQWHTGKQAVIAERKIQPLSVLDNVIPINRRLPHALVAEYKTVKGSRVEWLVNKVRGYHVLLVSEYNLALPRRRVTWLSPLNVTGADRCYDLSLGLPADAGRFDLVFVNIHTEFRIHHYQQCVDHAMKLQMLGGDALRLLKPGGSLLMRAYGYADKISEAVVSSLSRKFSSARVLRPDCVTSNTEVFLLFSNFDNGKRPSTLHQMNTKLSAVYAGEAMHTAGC
cleavage specificity, MALDI-TOF mass-spectrometry [1]: cleavage specificity was also maintained for these truncates sites
cleavage specificity, MALDI-TOF mass-spectrometry [2]: cleavage specificity was also maintained for these truncates sites
